The values below come from the supplement of paper PMC3578754.

What all share (test): fold change of IC50 against reference virus; higher = more resistant
Compound in one assay: C[C@H](Cn1cnc2c(N)ncnc21)OCP(=O)(O)O [tenofovir]
The procedure: (§1)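 Cell-culture drug susceptibility tests of virus bearing the reverse transcriptase of each isolate, gathered from many studies.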

Compound in the next assay: Cc1cn([C@H]2C=C[C@@H](CO)O2)c(=O)[nH]c1=O [stavudine]
The procedure: as §1

Compound in a further assay: Cc1cn([C@H]2C[C@H](N=[N+]=[N-])[C@@H](CO)O2)c(=O)[nH]c1=O [zidovudine]
The protocol:
as §1

Compound in the next assay: Nc1nc(=O)n([C@@H]2CS[C@H](CO)O2)cc1F [emtricitabine]
The procedure:
as §1

Compound in a further assay: Nc1nc(NC2CC2)c2ncn([C@H]3C=C[C@@H](CO)C3)c2n1 [abacavir]
The protocol:
as §1

Compound in another assay: O=c1[nH]cnc2c1ncn2[C@H]1CC[C@@H](CO)O1 [didanosine]
The procedure: as §1

Compound in a further assay: Cc1ccnc2c1NC(=O)c1cccnc1N2C1CC1 [nevirapine]
The protocol:
as §1

Compound in the next assay: Nc1ccn([C@H]2CC[C@@H](CO)O2)c(=O)n1 [zalcitabine]
The procedure:
as §1

Compound in a further assay: CC(C)Nc1cccnc1N1CCN(C(=O)c2cc3cc(NS(C)(=O)=O)ccc3[nH]2)CC1 [delavirdine]
The procedure: as §1

Fold change is the IC50 on the isolate divided by the IC50 on a reference virus; 1 = unchanged, higher = more resistant. Changes are given against the subtype B consensus. No active / inactive call. The values were gathered from many studies (numbered anew) with different assays, which the source does not name. Most viruses are clinical isolates; some are laboratory strains or clones with known resistance changes. Isolates with mixed residues are left out; stretches that were not sequenced show no change. Round top values that many isolates share are read here as limits; other very high values and 0.1 may be limits too.

In the case of “HIV-1 isolate 337 (reverse transcriptase changes: L74I Q151L, study 136)”, the “fold change of IC50 against reference virus” value (“fold change of IC50” for short) in the assay with tenofovir stood at 0.1; with stavudine, 0.8; in the assay with zidovudine it was 0.1; with emtricitabine, 1.8; with abacavir, 1; in the assay with didanosine, 1.1.
“HIV-1 isolate 1427 (reverse transcriptase changes: K122E F214L A272P K277R A376T A400T D460N S468T H483Y K512Q S519N, study 144)”: the “fold change of IC50” value with nevirapine, with zidovudine, with zalcitabine, in the assay with emtricitabine and with didanosine was 1 each time.
Regarding “HIV-1 isolate 621 (reverse transcriptase changes: K122E Y181C F214L A272P K277R A376T A400T D460N S468T H483Y K512Q S519N, study 44)”, the “fold change of IC50” value with nevirapine came out at 150; in the assay with emtricitabine, 1.
With “HIV-1 isolate 238 (reverse transcriptase changes: Q151M, study 136)”, the “fold change of IC50” value in the assay with tenofovir was 0.8; with stavudine, 3.2; with zidovudine it was 2; with emtricitabine it was 1.4; with abacavir, 3.6; in the assay with didanosine, 4.
In the case of “HIV-1 isolate 283 (reverse transcriptase changes: K70R V90I A98S D123E M184V R211K A272P K281R E297K, study 15)”, the “fold change of IC50” value stood at 0.5 with tenofovir; 0.7 in the assay with stavudine; 0.5 with zidovudine; 300 with emtricitabine; 2.8 in the assay with abacavir; 1.1 in the assay with didanosine.
Turning to “HIV-1 isolate 967 (reverse transcriptase changes: A62V V75I F77L F116Y Q151M, study 136)”, the “fold change of IC50” value came to 2.9 with tenofovir; 14 with stavudine; 65 with zidovudine; 33 with emtricitabine; 19 in the assay with abacavir; 13 with didanosine.
Turning to “HIV-1 isolate 1102 (reverse transcriptase changes: K70E L74I Q151L L187F, study 136)”, the “fold change of IC50” value in the assay with tenofovir came to 0.1; with stavudine it was 1.1; in the assay with zidovudine it was 0.1; in the assay with emtricitabine, 3.4; with abacavir, 1.1; in the assay with didanosine, 1.3.
With “HIV-1 isolate 1146 (reverse transcriptase changes: V75T K122E F214L A272P K277R A376T A400T D460N S468T H483Y K512Q S519N, study 20)”, the “fold change of IC50” value came out at 7.6 in the assay with stavudine; 2 with zidovudine; 19 in the assay with zalcitabine; 3 with emtricitabine; 5.5 with didanosine.
For the test system “HIV-1 isolate 126 (reverse transcriptase changes: M41L L74V V106A K122E M184V F214L T215Y A272P K277R M357T A376T A400T N447S D460N S468T S519N, study 17)”, the “fold change of IC50” value was determined as 150 with nevirapine, 1 with zidovudine, 2000 with emtricitabine and 19 with didanosine.
With “HIV-1 isolate 367 (reverse transcriptase changes: K70E L74I Q151L, study 136)”, the “fold change of IC50” value in the assay with tenofovir came to 0.1; with stavudine it was 1.3; with zidovudine, 0.1; in the assay with emtricitabine, 3.9; with abacavir, 1.5; with didanosine, 1.4.
With “HIV-1 isolate 1019 (reverse transcriptase changes: M16V V35I T39A D67N K70R R83K K101A V106I K122P I178M V179I M184V G190A R211K K219Q I244V A272P, study 15)”, the “fold change of IC50” value with tenofovir was 0.5; with stavudine, 0.9; with zidovudine, 0.8; in the assay with emtricitabine, 300; with abacavir, 3; with didanosine, 1.3.
Consider “HIV-1 isolate 1597 (reverse transcriptase changes: D67N K70R K122E Y181C M184V F214L T215Y K219Q A272P K277R A376T A400T D460N S468T H483Y K512Q S519N, study 44)”, for which the “fold change of IC50” value was 46 in the assay with nevirapine; 4 in the assay with zidovudine; 4 in the assay with zalcitabine; 5000 in the assay with emtricitabine; 1.6 in the assay with didanosine.
“HIV-1 isolate 168 (reverse transcriptase changes: D67N K70R K122E M184V F214L T215Y K219Q A272P K277R A376T A400T D460N S468T H483Y K512Q S519N, study 44)”: the “fold change of IC50” value in the assay with zidovudine came to 17; with zalcitabine, 4; in the assay with emtricitabine, 5000; with didanosine, 2.4.
For the test system “HIV-1 isolate 182 (reverse transcriptase changes: A62V V75I F77L F116Y Q151M, study 136)”, the “fold change of IC50” value with tenofovir was determined as 2.5; with stavudine, 15; with zidovudine it was 128; with emtricitabine, 8.1; with abacavir, 7; in the assay with didanosine, 13.
Take “HIV-1 isolate 1038 (reverse transcriptase changes: V35M K49R D67G S68G K70R D121H K122E D123S I135T Q174R P176T I178M Y181C T200A R211K T215F D218E K219E V245Q L260I K277R, study 15)”: the “fold change of IC50” value with delavirdine is 41; in the assay with tenofovir, 2.3; in the assay with nevirapine, at least 400; with stavudine it was 1.7; with zidovudine, 97; with emtricitabine, 3. Moreover, the “fold change of IC50” value came to 2.5 in the assay with abacavir and 1.1 in the assay with didanosine.
Turning to “HIV-1 isolate 47 (reverse transcriptase changes: M41L K122E Y181C M184V F214L T215Y A272P K277R A376T A400T D460N S468T H483Y K512Q S519N, study 44)”, the “fold change of IC50” value in the assay with nevirapine came to 80; with zidovudine it was 4; with zalcitabine it was 4; with emtricitabine, 5000; with didanosine it was 2.1.
Regarding “HIV-1 isolate 741 (reverse transcriptase changes: K122E M184V F214L A272P K277R A376T A400T D460N S468T H483Y K512Q S519N, study 44)”, the “fold change of IC50” value in the assay with nevirapine worked out at 1; with zidovudine, 1; with zalcitabine it was 3; with emtricitabine it was 5000; in the assay with didanosine, 2.8.
As for “HIV-1 isolate 545 (reverse transcriptase changes: A62V V75I F77L F116Y Q151M M184V, study 136)”, the “fold change of IC50” value turned out to be 0.8 with tenofovir; 6.3 in the assay with stavudine; 42 with zidovudine; 110 with emtricitabine; 21 with abacavir; 14 with didanosine.
As to “HIV-1 isolate 1356 (reverse transcriptase changes: M41L K122E F214L T215Y A272P K277R M357T A376T A400T N447S D460N S468T S519N, study 17)”, the “fold change of IC50” value worked out at 1 with nevirapine, 65 with zidovudine, 1 with emtricitabine and 1.9 in the assay with didanosine.
